Earlier results in article PMC5608908, “Novel scaffolds for inhibition of Cruzipain identified from high-throughput screening of anti-kinetoplastid chemical boxes” (Scientific Reports, 2017).

Design: method as in PMID 25740547
Details: relative frequency with which a compound has scored more than 50% inhibition in an HTS assay; cited from earlier work

Row | SMILES | inhibition frequency index
1 | N#CN1CC[C@@H](NC(=O)Nc2ccccc2Oc2ccccc2)C1 [TCMDC-143238] | 5.10
2 | COc1ccc(OC)c(S(=O)(=O)N(Cc2c(F)cccc2F)C2CCN(C#N)C2)c1 (centres unmarked) [TCMDC-143370] | 2.41
